Assay results taken from US20090062198A1, “Maurotoxin, PI1 and HSTX1 derivatives” (published 2009).

Biological target: mammalian voltage-gated Kv1.2 channel (mammalian)

[Abu9,19,29,34]-MTX (peptide)
blocking activity (pharmacological assays): 42 nM
